Laboratory results published in patent US10709758B2 (priority 2015, dated 2020).

Tested on: CHO-K1 cells
Test: Cell penetrating activity: flow cytometry of labeled cargo uptake into CHO-K1 cells
Format: cell-based
Details: CHO-K1, 30 min 37° C., 50 μM peptide with dextranAF488, CROPAF488 or dsRNAfluorescein (FIGS. 34-38)

NVFKDNTISDKISFNFSDK
cell penetrating activities of mutant peptides: the cell penetrating activities remained intact
